Test results taken from paper PMC10998830, “Allosteric activation unveils protein-mass modulation of ATP phosphoribosyltransferase product release” (Communications Chemistry, 2024).

What was measured:
Assay in all cases: purified protein
[1] = test system: O=P(O)(O)OC[C@H]1O[C@H](OP(=O)(O)OP(=O)(O)O)[C@H](O)[C@@H]1O; conditions: 25 °C, pH 8.5, 6.4 mM ATP, 15 mM MgCl2, 100 mM KCl, unlabelled enzyme
[2] = test system: Nc1ncnc2c1ncn2[C@@H]1O[C@H](COP(=O)(O)OP(=O)(O)OP(=O)(O)O)[C@@H](O)[C@H]1O; conditions: 25 °C, pH 8.5, 3.2 mM PRPP, 15 mM MgCl2, 100 mM KCl, unlabelled enzyme
[3] = test system: Nc1ncnc2c1ncn2[C@@H]1O[C@H](COP(=O)(O)OP(=O)(O)O)[C@@H](O)[C@H]1O; conditions: 25 °C, pH 8.5, 3.2 mM PRPP, 15 mM MgCl2, 100 mM KCl, unlabelled enzyme

Substance: AbATPPRT (Acinetobacter baumannii ACICU; R70A)
- Km [1]: 300 ± 40 µM
- kcat [1]: 2.17 ± 0.06 s⁻¹
- Km [2]: 700 ± 100 µM
- kcat [2]: 2.17 ± 0.06 s⁻¹
- Km [3]: 1300 ± 100 µM
- kcat [3]: 2.47 ± 0.06 s⁻¹
